This test deals with H16N2 cells. As to the kind of experiment: Cell proliferation assay (alamar blue), H16N2. It is filed as cell-based, human. The settings on record: antibodies at 150 μg/ml, day 6 of in vitro culture. On the technique in general: The colour change of resazurin is a common sign of viable cells or microbes.

For the substance “Herceptin: anti-Her2/neu antibody, positive antibody control for Her2-positive tumor cell lines”, the proliferation result is “but not of H16N2”.
